The results in this text go back to PubChem BioAssay AID652162 (Broad Institute, 2013).

The structures appear in SMILES notation. Only a part is listed here, and it is no random draw. Active and inactive are the calls of the source. No stated cut-off is given here; in the data, active means inhibition above about 10%; inactive means the rest.

The target in the test is Toxin B (Clostridioides difficile) (UniProt P18177). Nature of the test: TcdB glycohydrolase inhibitors, primary screen, biochemical, single point, plate reader (AID 652162). Conditions: TcdB glycohydrolase enzymatic assay, at 9.99 µM, stronger effect = higher value.
For `Clc1ccc(Cl)c(NC2=NCC(CBr)S2)c1` (centres undefined), the inhibition (commonly the drop in the measured response relative to a control, in per cent) is inactive: 1.07%. Under `COc1ccccc1OP(=O)(Nc1ccc(C)cn1)Oc1ccccc1OC` stands inactive: 0.235%; under `Cc1ccc(OP(=O)(Nc2nccs2)Oc2ccc(C)cc2)cc1`, inactive: 1.27%. Under `CN(C(=O)Cc1ccc(Cl)c(Cl)c1)[C@H]1CCCC[C@H]1N1CCCC1` stands inactive: -2.98%.

Regarding `Cc1ccc(N/C(=N/P(=O)(N2CCOCC2)N2CCOCC2)N2CCOCC2)cc1`, the inhibition was inactive: -1.14%. In the case of `NC(=O)c1cc([N+](=O)[O-])cc([N+](=O)[O-])c1N`, the inhibition is inactive: 3.05%. For `O=C(NC(Sc1ccncn1)C(Cl)(Cl)Cl)c1ccccc1` (centres undefined), the inhibition was inactive: 0.133%. Take `Nc1cc(N)c2nonc2c1[N+](=O)[O-]`: the inhibition is inactive: 0.634%. For the compound `CC(C)CC(=O)NC(Sc1ccc(Cl)cc1)C(Cl)(Cl)Cl` (centres undefined), the inhibition was inactive: 0.672%. On to `CCn1c(=O)n(C2CCN(CC3CCCCCCC3)C[C@H]2CO)c2ccccc21` (some centres undefined), for which the inhibition is inactive: 0.473%. For `CN(C(=O)Cc1ccc(Cl)c(Cl)c1)[C@H]1CCCC[C@@H]1N1CCCC1`, the inhibition is inactive: 2.85%.

As to `Cc1ccc(NP(=O)(Oc2ccccc2F)Oc2ccccc2F)nc1`, the inhibition was inactive: 1.33%. On to `O=P(Nc1nc2ccc(Cl)cc2s1)(c1ccccc1)c1ccccc1`, for which the inhibition is inactive: 2.35%.

Take `CN(C)P(=O)(N(C)C)n1c(Nc2ccccc2)nnc1-c1ccccc1`: the inhibition was inactive: 0.958%. For the compound `CC(=O)Nc1ccc([As](=O)(O)O)cc1`, the inhibition was inactive: -0.215%.

`O=C(O)c1ccccc1[As](=O)(O)O`: the inhibition was inactive: 0.633%. `CCCC1OP(N)(=O)OCC1CC` (centres undefined): the inhibition is inactive: 1.79%. As for `Nc1cccc2ccc([As](=O)(O)O)cc12`, the inhibition is inactive: -1.78%. Take `CN(C(=O)Cc1ccccc1)C1CC[C@@]2(CCCO2)C[C@@H]1N1CCCC1` (some centres undefined): the inhibition is inactive: 1.36%. `O=C(Nc1cc([As](=O)(O)O)ccc1O)c1ccccc1`: the inhibition was inactive: -8.98%. Take `O=P1(N(CCCl)CCCl)OCCCS1` (centres undefined): the inhibition was inactive: 0.122%. Under `O=C(O)CNc1ccc([As](=O)(O)O)cc1` stands inactive: 0.391%; under `COC(=O)C1(C)COP(=O)(Nc2ccccc2)OC1` (centres undefined), inactive: -0.661%. `O=[N+]([O-])c1cccc(NC2=NCC(CBr)S2)c1` (centres undefined): the inhibition is inactive: 1.13%.

Turning to `O=[N+]([O-])c1ncn(CCn2ncnc2[N+](=O)[O-])n1`, the inhibition was inactive: -0.004%.

Consider `CC(C)(C)C(=O)NC(Sc1ccncn1)C(Cl)(Cl)Cl` (centres undefined), for which the inhibition was inactive: -0.821%. For the compound `Cc1ccc(NP(=O)(Oc2ccccc2)Oc2ccccc2)nc1`, the inhibition is inactive: -1.93%. In the case of `O=[N+]([O-])c1cc([N+](=O)[O-])c(CCNc2ccccc2)c([N+](=O)[O-])c1` it was inactive: 2.09%; in that of `COc1ccc(C2=NCC(CBr)S2)cc1` (centres undefined), inactive: 1.45%. Under `c1cc(-c2nn[nH]n2)ccc1-c1nn[nH]n1` stands inactive: 0.94%; under `CC(C)c1nc(Nc2ccccc2)n(P(=O)(N(C)C)N(C)C)n1`, inactive: 1.24%. On to `CC(C)=N/N=C(\N)N[N+](=O)[O-]`, for which the inhibition was inactive: 0.044%. Under `CCN(/C(=N/P(=O)(N1CCOCC1)N1CCOCC1)N1CCOCC1)c1ccc(OC)cc1` stands inactive: -5.15%; under `Nc1ccc([As](=O)(O)c2ccc(N)cc2)cc1`, inactive: 0.266%. Regarding `C[N+]1=C2C=CC=CC=C2SC12C([N+](=O)[O-])=CC([N+](=O)[O-])=C[C-]2[N+](=O)[O-]` (centres undefined), the inhibition was inactive: -1.57%. As to `O=P(Nc1nc2ccccc2s1)(c1ccccc1)c1ccccc1`, the inhibition was inactive: 1.47%. Turning to `C[C@H]1OP(=O)(Oc2ccccc2)[C@H](O)[C@H](O)[C@H]1N=[N+]=[N-]` (some centres undefined), the inhibition was inactive: 0.839%. Turning to `CN(C)C1(CNC(=O)c2ccc(Cl)c(S(N)(=O)=O)c2)CCCCC1`, the inhibition was inactive: 0.429%.

For the compound `O=P(Nc1ccccn1)(c1ccc(Br)cc1)c1ccc(Br)cc1`, the inhibition is inactive: 2.03%. Under `COc1ccc(N)c([N+](=O)[O-])c1[N+](=O)[O-]` stands inactive: 2.84%; under `Nc1ccc(CCCCOc2ccccc2)cc1`, inactive: -0.944%. For `C/C(N)=N\P(=O)(OCc1ccccc1)OCc1ccccc1`, the inhibition was inactive: 0.528%. As to `C(Cc1nn[nH]n1)Cc1nn[nH]n1`, the inhibition was inactive: 0.462%.

For `Nc1ccc([As](=O)(O)c2ccc([N+](=O)[O-])cc2)cc1`, the inhibition is inactive: 1.25%. Under `O=[As](O)(c1ccccc1)c1ccc(O)cc1` stands inactive: -1.23%.

Consider `CC(=O)NC(SC(=S)N(C)C)C(Cl)(Cl)Cl` (centres undefined), for which the inhibition is inactive: -1.14%. Under `O=[N+]([O-])c1ncn(CCn2cnc([N+](=O)[O-])n2)n1` stands inactive: 0.781%; under `O=P1(N(CCCl)CCCl)OCCC2CCCCN21` (centres undefined), inactive: -6.42%. Consider `c1ccc(-c2nn[nH]n2)c(-c2nn[nH]n2)c1`, for which the inhibition was inactive: -0.182%.

With `Cc1ccc(NP(=O)(Oc2cccc(C)c2)Oc2cccc(C)c2)nc1`, the inhibition is inactive: -0.597%. On to `O=C(NC1CCS(=O)(=O)C1)NP(=S)(Oc1ccccc1)Oc1ccccc1` (centres undefined), for which the inhibition is inactive: 0.977%.

`CCNC(=S)/N=C(\N)N[N+](=O)[O-]`: the inhibition was inactive: 0.333%. On to `CC(NC(=O)COC(=O)C(O)(c1ccccc1)c1ccccc1)c1ccccc1` (centres undefined), for which the inhibition is inactive: 4.79%. With `Cc1ccccc1OP(=O)(Nc1ccccn1)Oc1ccccc1C`, the inhibition is inactive: 1.33%. Consider `O=c1c2cc([N+](=O)[O-])ccc2[nH]c2c([N+](=O)[O-])cc([N+](=O)[O-])cc12`, for which the inhibition is inactive: 0.906%. In the case of `CN(C)C(=O)Oc1noc2ccccc12` it was inactive: 1.57%; in that of `O=C(OC1CN2CCC1CC2)c1ccccc1` (centres undefined), inactive: 0.405%. As to `Cc1ccc(OP(=O)(Nc2ccccn2)Oc2ccc(C)cc2)cc1`, the inhibition was inactive: 0.373%.

As for `CC(C)(C)C(=O)NC(Sc1ccccc1)C(Cl)(Cl)Cl` (centres undefined), the inhibition is inactive: 1.33%. With `CCc1cc(O)c([N+](=O)[O-])c(C)c1[N+](=O)[O-]`, the inhibition is inactive: 0.215%. Turning to `CCOc1ccc(C2=NCC(CBr)S2)cc1` (centres undefined), the inhibition is inactive: 1.08%.

As for `CC(=O)Nc1ccc([As](=O)(O)O)c(O)c1`, the inhibition was inactive: -0.528%. For `CC(=O)Nc1ccc(Oc2c([N+](=O)[O-])cc([N+](=O)[O-])cc2[N+](=O)[O-])cc1`, the inhibition is active: 30.3%. In the case of `Cc1ccccc1CN(C)C(=O)COC(=O)C(O)(c1ccccc1)c1ccccc1` it was inactive: -0.328%.
